A mixed list of measured activities; the numbers were collected in NIAID ChemDB.

Common to all: tests in culture

ECn is the concentration giving n% inhibition of infection, replication or growth.

| SMILES | measure | cell line | organism | read by | strain | dose | result |
|---|---|---|---|---|---|---|---|
| Nc1ccn(C[C@@H](CO)OCP(=O)(O)O)c(=O)n1 | EC50 | MRC-5 | Herpes simplex virus | plaque count | Initial clinical isolates |  | 0.4 µM |
| C/C=C/c1cn([C@H]2C[C@H](O)[C@@H](CO)O2)c(=O)[nH]c1=O | inhibition | VERO | Herpes simplex virus 1 | plaque count | C42PFA-R | 10 µM | 99% |
| Nc1nc2c(ncn2COC(CO)CO)c(=O)[nH]1 | inhibition | WI-38 | Herpes simplex virus 1 | plaque count | SC16 (mutant B3) | 0.5 µM | 90% |
| O=S(=O)(O)c1ccc2cc(O)c(S(=O)(=O)O)cc2c1 | inhibition | Human amnion AV3 cells | Herpes simplex virus | cytopathic effect |  | 10 µg/mL | 0% |
| O=c1[nH]c(=O)n([C@@H]2O[C@H](CO)[C@@H](O)[C@@H]2O)cc1/C=C/Br | MIC |  | Herpes simplex virus |  | WT-34 |  | 0.032 µg/mL |
| O=S(=O)([O-])c1ccc(O)cc1 | inhibition | Human amnion AV3 cells | Herpes simplex virus | cytopathic effect |  | 50 µg/mL | 20% |
| COc1cc(OC)c(NC(=S)Nc2ccc(NC(=O)c3ccco3)cc2)cc1Cl | EC50 |  | Herpes simplex virus |  |  |  | 9 µM |
| O=C(O)c1ccc(S(=O)(=O)[O-])cc1C(=O)O | inhibition | Human amnion AV3 cells | Herpes simplex virus | cytopathic effect |  | 5 µg/mL | 0% |
| O=C(Nc1ccc(NC(=S)Nc2cc(C(F)(F)F)cc(C(F)(F)F)c2)cc1)c1csnn1 | EC50 |  | Herpes simplex virus |  |  |  | >20 µM |
| O=c1[nH]c(=O)n([C@@H]2O[C@H](CO)[C@@H](O)[C@@H]2O)cc1/C=C/Br | inhibition | VERO | Herpes simplex virus 1 | plaque count | C42 | 10 µM | >90% |
| O=C(Nc1ccc(NC(=S)Nc2ccc(Cl)c(C(F)(F)F)c2)cc1)c1csnn1 | EC50 |  | Herpes simplex virus |  |  |  | 20 µM |
| O=c1[nH]c(=O)n([C@H]2C[C@H](O)[C@@H](CO)O2)cc1I | MIC |  | Herpes simplex virus |  | WT-20 |  | 32 µg/mL |
| Cc1ccc(C(=O)Nc2ccc(S(=O)(=O)O)c3cc(S(=O)(=O)O)cc(S(=O)(=O)O)c23)cc1NC(=O)c1cccc(NC(=O)Nc2cccc(C(=O)Nc3cc(C(=O)Nc4ccc(S(=O)(=O)O)c5cc(S(=O)(=O)O)cc(S(=O)(=O)O)c45)ccc3C)c2)c1 | inhibition | Human conjunctiva cells | Herpes simplex virus | cytopathic effect |  | 5 µg/mL | 10% |
| O[C@@H]1[C@@H](O)[C@H](Oc2ccccc2)O[C@H](CCl)[C@H]1O | EC50 | LLC-MK2 | Herpes simplex virus | plaque count |  |  | 1000 µM |
| O=S(=O)(O)c1cc(O)c2c(O)cc(S(=O)(=O)O)cc2c1 | inhibition | Human conjunctiva cells | Herpes simplex virus | cytopathic effect |  | 5 µg/mL | 0% |
| O[C@@H]1[C@@H](O)[C@H](Oc2ccc(Cl)cc2)O[C@H](CCl)[C@H]1O | EC50 | LLC-MK2 | Herpes simplex virus | plaque count |  |  | 500 µM |
| Cc1cn([C@@H]2O[C@H](CO)[C@@H](O)[C@@H]2O)c(=O)[nH]c1=O | MIC |  | Herpes simplex virus |  | WT-34 |  | 1 µg/mL |
| Cc1cc(-c2ccc(N=Nc3c(N)c(S(=O)(=O)O)cc4cc(S(=O)(=O)O)ccc34)c(C)c2)ccc1N=Nc1c(N)ccc2cc(S(=O)(=O)O)ccc12 | inhibition | Human amnion AV3 cells | Herpes simplex virus | cytopathic effect |  | 10 µg/mL | 20% |
| C[C@H]1O[C@@H](Oc2ccccc2)[C@H](O)[C@@H](O)[C@@H]1O | EC50 | LLC-MK2 | Herpes simplex virus | plaque count |  |  | 1000 µM |

2 of the rows above, restated:

SMILES | measure | cell line | organism | read by | strain | dose | result
O=c1[nH]c(=O)n([C@H]2C[C@H](O)[C@@H](CO)O2)cc1I | MIC |  | Herpes simplex virus |  | WT-20 |  | 32 µg/mL
C/C=C/c1cn([C@H]2C[C@H](O)[C@@H](CO)O2)c(=O)[nH]c1=O | inhibition | VERO | Herpes simplex virus 1 | plaque count | C42PFA-R | 10 µM | 99%

Inhibition is in % at the dose shown (toxicity tests: loss of growth or viability). Blank or dashed fields: not listed here. Rows are shuffled and stem from different studies.